Measured values from several laboratories, pooled; numbers as filed in NIAID ChemDB.

Shared fields: growth or infection tests; species: Hepatitis C virus; endpoint: EC50

ECn is the concentration giving n% inhibition of infection, replication or growth.

C=CC1CC1(NC(=O)[C@@H]1C[C@@H](OC(=O)Nc2ccccc2N2CCCCC2)CN1C(=O)[C@@H](NC(=O)OC(C)(C)C)C(C)(C)C)C(=O)NS(=O)(=O)C1CC1 ; cells: Huh7 ; strain: 1b ; method: replicon ; value: <0.1 µM
CNC(=O)c1c(-c2ccc(F)cc2)oc2cc(-c3noc(C)n3)c(OC)cc12 ; cells: Huh7 ; method: replicon ; value: <1 µM
O=C(O)c1ccc2c(C3CCCCC3)c3n(c2c1)CCCCN(CCO)c1ccccc1-3 ; cells: Huh7 ; method: replicon ; value: 1–10 µM
O=C(Nc1ccc(C2SC(=Nc3cccc(F)c3)N(CCc3cccs3)C2=O)cc1)[C@H]1CCCN1C(=O)OCc1ccccc1 ; cells: Huh7 ; method: replicon ; value: 1–5 µM
C=CC1CC1(NC(=O)[C@@H]1C[C@@H](OC(=O)N2CCCCC2)CN1C(=O)[C@@H](NC(=O)OC(C)(C)C)C(C)(C)C)C(=O)NS(=O)(=O)C1CC1 ; cells: Huh7 ; strain: 1b ; method: replicon ; value: 1–10 µM
COC(=O)c1ccc2c(C3CCCCC3)c3n(c2c1)CC(C#N)=Cc1ccccc1-3 ; cells: Huh7 ; method: replicon ; value: 1–10 µM
O=C(Nc1ccc(C2SC(=Nc3cccnc3)N(Cc3cccc(F)c3)C2=O)cc1)[C@@H]1CCCN1C(=O)Cc1ccccc1 ; cells: Huh7 ; method: replicon ; value: <0.1 µM
CNC(=O)c1c(-c2ccc(F)cc2)oc2cc(N(Cc3ccc(B(O)O)c(F)c3)S(C)(=O)=O)c(C3CC3)cc12 ; cells: Huh7.5 ; strain: H77 genotype 1a ; method: luciferase ; value: 0.003 µM
C=CC1CC1(NC(=O)[C@@H]1C[C@@H](OC(=O)N(C)C)CN1C(=O)[C@@H](NC(=O)OC(C)(C)C)C(C)(C)C)C(=O)NS(=O)(=O)C1CC1 ; cells: Huh7 ; strain: 1b ; method: replicon ; value: >10 µM
O=C(O)c1ccc2c(C3CCCCC3)c3n(c2c1)CC(C(=O)O)Cc1ccccc1-3 ; cells: Huh7 ; method: replicon ; value: >10 µM
C=CC1CC1(NC(=O)[C@@H]1C[C@@H](OC(=O)NCc2cccc(CC)c2)CN1C(=O)[C@@H](NC(=O)OC(C)(C)C)C(C)(C)C)C(=O)NS(=O)(=O)C1CC1 ; cells: Huh7 ; strain: 1b ; method: replicon ; value: 1–10 µM
NC(=O)COc1ccc2c(c1)S(=O)(=O)N=C(c1c(O)c3cc(F)ccc3n(CCC3CC3)c1=O)N2 ; strain: 1b 46002 ; method: replicon ; value: 0.021 µM
COC(=O)N[C@H](C(=O)N1CCC[C@H]1c1ncc(-c2ccc(-c3ccc(-c4cnc([C@@H]5CCCN5C(=O)[C@@H](NC(=O)OC)C(C)C)[nH]4)cc3)cc2)[nH]1)C(C)C ; cells: Lunet ; strain: 1a ; mutations: Q30R ; method: luciferase ; value: 0.0061 µM
CNC(=O)c1c(-c2ccc(F)cc2)oc2cc(N3CCOCC3)c(OC3CCCC3)cc12 ; cells: Huh7 ; method: replicon ; value: <1 µM
O=C(NS(=O)(=O)C1CC1)c1ccc2c(C3CCCCC3)c3n(c2c1)CCNc1ccccc1-3 ; cells: Huh7 ; method: replicon ; value: 0.01–1 µM
CNC(=O)c1c(-c2ccc(F)cc2)oc2cc(C(C)=O)c(O)cc12 ; cells: Huh7 ; method: replicon ; value: <10 µM
C=CC1CC1(NC(=O)[C@@H]1C[C@@H](OC(=O)N2CCOCC2)CN1C(=O)[C@@H](NC(=O)OC(C)(C)C)C(C)(C)C)C(=O)NS(=O)(=O)C1CC1 ; cells: Huh7 ; strain: 1b ; method: replicon ; value: >10 µM
COC(=O)c1ccc2c(C3CCCCC3)c3n(c2c1)CC(=O)N3Cc1ccccc1 ; cells: Huh7 ; method: replicon ; value: 1–10 µM
CCCOc1cc2c(C(=O)NC)c(-c3ccc(F)cc3)oc2cc1N(CCC)S(C)(=O)=O ; cells: Huh7 ; method: replicon ; value: <1 µM
O=C(Nc1ccc(C2SC(=Nc3ccc4c(c3)CCC4)N(Cc3ccco3)C2=O)cc1)[C@H]1CCCN1C(=O)OCc1ccccc1 ; cells: Huh7 ; method: replicon ; value: 0.1–1 µM
CNC(=O)c1c(-c2ccccc2)oc2c(C)cc(OC)cc12 ; cells: Huh7 ; method: replicon ; value: <10 µM
COC(=O)/C=C/c1ccc(NC(=O)C2(NC(=O)c3ccc4c(C5CCCCC5)c5n(c4c3)CC(C(=O)NCCN(C)C)N(C)c3nccnc3-5)CCCC2)cc1 ; cells: Huh7 ; method: replicon ; value: 0.01–1 µM
C=CCN(CC=C)C(=O)O[C@@H]1C[C@@H](C(=O)NC2(C(=O)NS(=O)(=O)C3CC3)CC2C=C)N(C(=O)[C@@H](NC(=O)OC(C)(C)C)C(C)(C)C)C1 ; cells: Huh7 ; strain: 1b ; method: replicon ; value: 1–10 µM
CC(C)N=C1SC(c2ccc(NC(=O)[C@@H](C)NC(=O)C(c3ccccc3)c3ccccc3)cc2)C(=O)N1Cc1ccccn1 ; cells: Huh7 ; method: replicon ; value: <0.1 µM
C=CC1CC1(NC(=O)[C@@H]1C[C@@H](OC(=O)Nc2c(C)cccc2Cl)CN1C(=O)[C@@H](NC(=O)OC(C)(C)C)C(C)(C)C)C(=O)NS(=O)(=O)C1CC1 ; cells: Huh7 ; strain: 1b ; method: replicon ; value: 1–10 µM
CNC(=O)c1c(-c2ccc(F)cc2)oc2cc(N(C)S(C)(=O)=O)c(OCc3ccc(OC)cc3)cc12 ; cells: Huh7 ; method: replicon ; value: <1 µM
O=C(N[C@@H](C(=O)N1CCC[C@H]1c1ncc(-c2ccc(-c3ccc(-c4cnc([C@@H]5CCCN5C(=O)[C@H](NC(=O)C5CC5)c5ccccc5)s4)cc3)cc2)s1)c1ccccc1)C1CC1 ; cells: Huh7.5 ; strain: genotype 1b ; mutations: Y93H ; method: luciferase / reporter gene ; value: 0.001408 µM
CNC(=O)c1c(-c2ccccc2)oc2ccc(OCc3ccccc3-c3ccccc3)cc12 ; cells: Huh7 ; method: replicon ; value: <30 µM
CN=C1SC(c2ccc(NC(=O)[C@@H](C)NC(=O)OCc3ccccc3)cc2)C(=O)N1Cc1ccccn1 ; cells: Huh7 ; method: replicon ; value: 0.1–1 µM
C=CC1CC1(NC(=O)[C@@H]1C[C@@H](OC(=O)Nc2cc(F)ccc2-n2cccn2)CN1C(=O)[C@@H](NC(=O)OC(C)(C)C)C(C)(C)C)C(=O)NS(=O)(=O)C1CC1 ; cells: Huh7 ; strain: 1b ; method: replicon ; value: <0.1 µM
CC(C)(C)OC(=O)N1CC(O)Cn2c(c(C3CCCCC3)c3ccc(C(=O)O)cc32)-c2ccccc21 ; cells: Huh7 ; method: replicon ; value: 1–10 µM
C=CC1CC1(NC(=O)[C@@H]1C[C@@H](OC(=O)NCc2ccccc2Cl)CN1C(=O)[C@@H](NC(=O)OC(C)(C)C)C(C)(C)C)C(=O)NS(=O)(=O)C1CC1 ; cells: Huh7 ; strain: 1b ; method: replicon ; value: 1–10 µM
O=C(O)/C=C/c1ccc(NC(=O)C2(NC(=O)c3ccc4c(C5CCCCC5)c5n(c4c3)C[C@@H](O)[C@@H](O)c3ncccc3-5)CCCC2)cc1 ; cells: Huh7 ; method: replicon ; value: 0.01–1 µM

A second listing of 4 rows from above:

structure,cells,strain,mutations,method,value
CCCOc1cc2c(C(=O)NC)c(-c3ccc(F)cc3)oc2cc1N(CCC)S(C)(=O)=O,Huh7,-,-,replicon,<1 µM
C=CCN(CC=C)C(=O)O[C@@H]1C[C@@H](C(=O)NC2(C(=O)NS(=O)(=O)C3CC3)CC2C=C)N(C(=O)[C@@H](NC(=O)OC(C)(C)C)C(C)(C)C)C1,Huh7,1b,-,replicon,1–10 µM
O=C(O)c1ccc2c(C3CCCCC3)c3n(c2c1)CCCCN(CCO)c1ccccc1-3,Huh7,-,-,replicon,1–10 µM
C=CC1CC1(NC(=O)[C@@H]1C[C@@H](OC(=O)N2CCCCC2)CN1C(=O)[C@@H](NC(=O)OC(C)(C)C)C(C)(C)C)C(=O)NS(=O)(=O)C1CC1,Huh7,1b,-,replicon,1–10 µM

Conditions beyond the fields shown may differ between rows. An empty or dashed field is not shown. Two numbers with a dash give a range or band.